Patent publication US9428542B2, “Lupane triterpenoid derivatives and pharmaceutical use thereof” (priority 2012, dated 2016)

Test system: HIV-1IIIB
Experiment: HIV-1 full replication assay (HIV-1IIIB-infected MT-2 cells, supernatant read out on TZM-bl cells, β-Gal)
Type: cell-based
Conditions: Therapeutic Index (TI)=TC50/IC50
Method: The antiviral activity of the compounds of the present invention was determined in a HIV-1 full replication assay.
In this assay, MT-2 cells that are infected with HIV-1IIIB were co-cultured with different concentration of the tested compounds for 3 days and then supernatant is transferred into new 384-well plates containing TZM-bl cells (also called JC53-bl). TZM-bl cells that could be infected by various kinds of HIV-1 strains stably express a great amount of HIV-1 receptor, co-receptor CD4 molecular, and co-receptor CXCR4 and CCR5. TZM-bl cells harbor LTR-luciferase and β-gal two report genes. The expression of luciferase and β-gal reporter directed by HIV-1 LTR can be activated by Tat protein generated after HIV infection, and the quantity of expression is proportional to the quantity of HIV-1. Compounds that interfere with virus replication in MT-2 cells, maturation of the virus, or post-entry steps in the HIV lifecycle decrease the luciferase signal or β-gal signal. In this experiment, BVM (Bevirimat, PA-457) is used as a positive control drug.
Method for Inhibiting HIV-1 Replication Assay:
The MT-2 cells are infected at a Multiciplicity (MOI) of 0.01 TCID50, and then the MT-2 cells suspension was diluted to a needed concentration. 90 μl of the MT-2 cells suspension from above was added into 384-well plates containing 10 μl of the tested compounds.
Compounds were dissolved in DMSO and tested as 11 points 3-fold serial dilutions. After addition of cells to compound plates, plates were placed to humidified 5% CO2 37 incubator for 3 days. 10 μl of cells culture supernatant from the incubated plates was transferred into new black 384-well plates.
Adjusted the TZMb1 cells concentration and 40 μl of TZMb1 cells was added into each well in the black 384-well plates. After addition of the TZMb1 cells to the black plates, black plates were placed to humidified 5% CO2 37 incubator for 24 h, then β-Gal activity was measured.
The anti viral activity %=(measured number-lowest mean number)/(highest mean number-lowest mean number)×100. The IC50 values were calculated by Median Equation and the IC curve was generated by Graphpad Prism V 5.03.
TC50 is referred to the toxicity in MT-2 cells by the compounds tested at 50% concentration; IC50 is referred to the inhibiting HIV-1IIIB replication in MT-2 cells by the compounds tested at 50% concentration; Therapeutic Index (TI)=TC50/IC50.

Row | Compound | TI
1 | CC(C)C1=C2[C@H]3CC[C@@H]4[C@@]5(C)CC[C@H](OC(=O)CC(C)(C)C(=O)O)C(C)(C)[C@@H]5CC[C@@]4(C)[C@]3(C)CC[C@@]2(c2cc(=O)n(Cc3ccc(Cl)cc3)n2C)CC1=O [91′-1] | 373
2 | CC(C)C1=C2[C@H]3CC[C@@H]4[C@@]5(C)CC[C@H](OC(=O)CC(C)(C)C(=O)O)C(C)(C)[C@@H]5CC[C@@]4(C)[C@]3(C)CC[C@@]2(Cc2cc(=O)n(-c3ccc(Cl)cc3)n2C)CC1=O [98′-1] | 364706
3 | CC(C)C1=C2[C@H]3CC[C@@H]4[C@@]5(C)CC[C@H](OC(=O)CC(C)(C)C(=O)O)C(C)(C)[C@@H]5CC[C@@]4(C)[C@]3(C)CC[C@@]2(Cc2cc(=O)n(-c3ccc(Cl)cn3)n2C)CC1=O [98′-2] | 151351
4 | C=C(C)[C@@H]1CC[C@]2(C(=O)O)CC[C@]3(C)[C@H](CC[C@@H]4[C@@]5(C)CC[C@H](OC(=O)CC(C)(C)C(=O)O)C(C)(C)[C@@H]5CC[C@]43C)[C@@H]12 [BVM, Bevirimat, reference compound] | 12800
5 | CC(C)C1=C2[C@H]3CC[C@@H]4[C@@]5(C)CC[C@H](OC(=O)CC(C)(C)C(=O)O)C(C)(C)[C@@H]5CC[C@@]4(C)[C@]3(C)CC[C@@]2(Cc2nnc(-c3ccc(Cl)cc3)o2)CC1=O [Compound 22-1] | 13939
6 | CC(C)C1=C2[C@H]3CC[C@@H]4[C@@]5(C)CC[C@H](OC(=O)CC(C)(C)C(=O)O)C(C)(C)[C@@H]5CC[C@@]4(C)[C@]3(C)CC[C@@]2(Cc2nnc(-c3ccccc3)o2)CC1=O [Compound 22-2] | 16470
7 | CC(C)C1=C2[C@H]3CC[C@@H]4[C@@]5(C)CC[C@H](OC(=O)CC(C)(C)C(=O)O)C(C)(C)[C@@H]5CC[C@@]4(C)[C@]3(C)CC[C@@]2(Cc2nnc(-c3ccc(Cl)cn3)o2)CC1=O [Compound 22-3] | 22500
8 | CC(C)C1=C2[C@H]3CC[C@@H]4[C@@]5(C)CC[C@H](OC(=O)CC(C)(C)C(=O)O)C(C)(C)[C@@H]5CC[C@@]4(C)[C@]3(C)CC[C@@]2(Cc2nnc(-c3cccnc3)o2)CC1=O [Compound 22-9] | 7674
9 | CC(C)C1=C2[C@H]3CC[C@@H]4[C@@]5(C)CC[C@H](OC(=O)CC(C)(C)C(=O)O)C(C)(C)[C@@H]5CC[C@@]4(C)[C@]3(C)CC[C@@]2(Cc2nnc(-c3ccc(C(F)(F)F)cn3)o2)CC1=O [Compound 22-12] | 77500
10 | CC(C)C1=C2[C@H]3CC[C@@H]4[C@@]5(C)CC[C@H](OC(=O)CC(C)(C)C(=O)O)C(C)(C)[C@@H]5CC[C@@]4(C)[C@]3(C)CC[C@@]2(Cc2nnc(-c3ccc(Cl)cc3F)o2)CC1=O [Compound 22-13] | 20588
11 | CC(C)C1=C2[C@H]3CC[C@@H]4[C@@]5(C)CC[C@H](OC(=O)CC(C)(C)C(=O)O)C(C)(C)[C@@H]5CC[C@@]4(C)[C@]3(C)CC[C@@]2(Cc2nnc(-c3ccc(Br)cn3)o2)CC1=O [Compound 22-14] | 1176470
12 | CC(C)C1=C2[C@H]3CC[C@@H]4[C@@]5(C)CC[C@H](OC(=O)CC(C)(C)C(=O)O)C(C)(C)[C@@H]5CC[C@@]4(C)[C@]3(C)CC[C@@]2(Cc2nnc(-c3ccc(C#N)cn3)o2)CC1=O [Compound 22-15] | 16191
13 | CC(C)C1=C2[C@H]3CC[C@@H]4[C@@]5(C)CC[C@H](OC(=O)CC(C)(C)C(=O)O)C(C)(C)[C@@H]5CC[C@@]4(C)[C@]3(C)CC[C@@]2(Cc2nnc(-c3ncc(Cl)cn3)o2)CC1=O [Compound 22-16] | 81250
14 | COc1ccc(-c2nnc(C[C@@]34CC[C@]5(C)[C@H](CC[C@@H]6[C@@]7(C)CC[C@H](OC(=O)CC(C)(C)C(=O)O)C(C)(C)[C@@H]7CC[C@]65C)C3=C(C(C)C)C(=O)C4)o2)nc1 [Compound 22-17] | 71429
15 | CC(C)C1=C2[C@H]3CC[C@@H]4[C@@]5(C)CC[C@H](OC(=O)CC(C)(C)C(=O)O)C(C)(C)[C@@H]5CC[C@@]4(C)[C@]3(C)CC[C@@]2(Cc2nnc(-c3ccc(F)cn3)o2)CC1=O [Compound 22-18] | 28235
16 | CC(C)C1=C2[C@H]3CC[C@@H]4[C@@]5(C)CC[C@H](OC(=O)CC(C)(C)C(=O)O)C(C)(C)[C@@H]5CC[C@@]4(C)[C@]3(C)CC[C@@]2(c2nnc(-c3ccc(Cl)cc3)o2)CC1=O [Compound 27-1] | 15151

Row | Compound | TI
17 | CC(C)C1=C2[C@H]3CC[C@@H]4[C@@]5(C)CC[C@H](OC(=O)CC(C)(C)C(=O)O)C(C)(C)[C@@H]5CC[C@@]4(C)[C@]3(C)CC[C@@]2(c2nnc(-c3ccccc3)o2)CC1=O [Compound 27-2] | 50000
18 | CC(C)C1=C2[C@H]3CC[C@@H]4[C@@]5(C)CC[C@H](OC(=O)CC(C)(C)C(=O)O)C(C)(C)[C@@H]5CC[C@@]4(C)[C@]3(C)CC[C@@]2(c2nnc(-c3ccc(Cl)cn3)o2)CC1=O [Compound 27-3] | 24000
19 | CC(C)C1=C2[C@H]3CC[C@@H]4[C@@]5(C)CC[C@H](OC(=O)CC(C)(C)C(=O)O)C(C)(C)[C@@H]5CC[C@@]4(C)[C@]3(C)CC[C@@]2(c2nnc(-c3cccnc3)o2)CC1=O [Compound 27-9] | 22727
20 | CC(C)C1=C2[C@H]3CC[C@@H]4[C@@]5(C)CC[C@H](OC(=O)CC(C)(C)C(=O)O)C(C)(C)[C@@H]5CC[C@@]4(C)[C@]3(C)CC[C@@]2(c2nnc(-c3ccc(C(F)(F)F)cn3)o2)CC1=O [Compound 27-11] | 920
21 | CC(C)C1=C2[C@H]3CC[C@@H]4[C@@]5(C)CC[C@H](OC(=O)CC(C)(C)C(=O)O)C(C)(C)[C@@H]5CC[C@@]4(C)[C@]3(C)CC[C@@]2(c2nnc(-c3ccncc3)o2)CC1=O [Compound 27-13] | 11765
22 | CC(C)C1=C2[C@H]3CC[C@@H]4[C@@]5(C)CC[C@H](OC(=O)CC(C)(C)C(=O)O)C(C)(C)[C@@H]5CC[C@@]4(C)[C@]3(C)CC[C@@]2(c2nnc(-c3ncc(Cl)cn3)o2)CC1=O [Compound 27-14] | 9388
23 | CC(C)C1=C2[C@H]3CC[C@@H]4[C@@]5(C)CC[C@H](OC(=O)CC(C)(C)C(=O)O)C(C)(C)[C@@H]5CC[C@@]4(C)[C@]3(C)CC[C@@]2(Cc2nnc(Cc3ccc(Cl)cc3)o2)CC1=O [Compound 33] | 11250
24 | CC(C)C1=C2[C@H]3CC[C@@H]4[C@@]5(C)CC[C@H](OC(=O)CC(C)(C)C(=O)O)C(C)(C)[C@@H]5CC[C@@]4(C)[C@]3(C)CC[C@@]2(c2ncc(-c3ccc(Cl)cc3)o2)CC1=O [Compound 65] | 305
25 | CC(C)C1=C2[C@H]3CC[C@@H]4[C@@]5(C)CC[C@H](OC(=O)CC(C)(C)C(=O)O)C(C)(C)[C@@H]5CC[C@@]4(C)[C@]3(C)CC[C@@]2(c2cnc(-c3ccc(Cl)cc3)o2)CC1=O [Compound 77] | 1258
26 | CC(C)C1=C2[C@H]3CC[C@@H]4[C@@]5(C)CC[C@H](OC(=O)CC(C)(C)C(=O)O)C(C)(C)[C@@H]5CC[C@@]4(C)[C@]3(C)CC[C@@]2(c2cc(=O)n(Cc3ccccc3)n2C)CC1 [Compound 89-2] | 633
27 | CC(C)C1=C2[C@H]3CC[C@@H]4[C@@]5(C)CC[C@H](OC(=O)CC(C)(C)C(=O)O)C(C)(C)[C@@H]5CC[C@@]4(C)[C@]3(C)CC[C@@]2(c2cc(=O)n(Cc3ccc(Cl)cc3)n2C)CC1=O [Compound 91-1] | 8723
28 | CC(C)C1=C2[C@H]3CC[C@@H]4[C@@]5(C)CC[C@H](OC(=O)CC(C)(C)C(=O)O)C(C)(C)[C@@H]5CC[C@@]4(C)[C@]3(C)CC[C@@]2(c2cc(=O)n(CC(=O)O)n2C)CC1=O [Compound 91-5] | 76
29 | CC(C)C1=C2[C@H]3CC[C@@H]4[C@@]5(C)CC[C@H](OC(=O)CC(C)(C)C(=O)O)C(C)(C)[C@@H]5CC[C@@]4(C)[C@]3(C)CC[C@@]2(c2cc(=O)n(CC(N)=O)n2C)CC1=O [Compound 91-6] | 24000
30 | CNC(=O)Cn1c(=O)cc([C@@]23CC[C@]4(C)[C@H](CC[C@@H]5[C@@]6(C)CC[C@H](OC(=O)CC(C)(C)C(=O)O)C(C)(C)[C@@H]6CC[C@]54C)C2=C(C(C)C)C(=O)C3)n1C [Compound 91-7] | 97143
31 | CC(C)C1=C2[C@H]3CC[C@@H]4[C@@]5(C)CC[C@H](OC(=O)CC(C)(C)C(=O)O)C(C)(C)[C@@H]5CC[C@@]4(C)[C@]3(C)CC[C@@]2(c2cc(=O)n(CC(=O)N(C)C)n2C)CC1=O [Compound 91-8] | 14546
32 | CC(C)C1=C2[C@H]3CC[C@@H]4[C@@]5(C)CC[C@H](OC(=O)CC(C)(C)C(=O)O)C(C)(C)[C@@H]5CC[C@@]4(C)[C@]3(C)CC[C@@]2(c2cc(=O)n(Cc3ccc(Cl)cn3)n2C)CC1=O [Compound 91-9] | 152941
